Laboratory results: PubChem BioAssay AID710 (SRMLSC, 2007)
Only a part is listed here, and it is no random draw. Active and inactive are the calls of the source.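 The calls were made as follows: active = growth inhibition above about 50% at one test dose (limit read from the data); inactive = the rest.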

Assay: antibacterial activity against E. coli BW25113 – strain BW25113, expanded library, OD600, primary screen (AID 710);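 also: growth measured after 20 h incubation at 37 °C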
Settings: OD600 absorbance, at 100 µM, hits give high values
In the case of COP1(=S)c2c(C)nn(CCC#N)c2N=C(c2ccc(F)cc2)N1C (stereo not given), the growth inhibition is reported as inactive: 5%.
For O=C(COc1ccccc1)OC1CN2CCC1CC2 (stereo not given), the growth inhibition was inactive: -8%.
For O=C(OC1CN2CCC1CC2)C12CC3CC(CC(C3)C1)C2 (stereo not given), the growth inhibition was inactive: 0%.
In the case of CCN(CC)C(=S)SC(NC=O)C(Cl)(Cl)Cl (stereo not given), the growth inhibition is reported as inactive: 25%.
With O=P(Nc1nccs1)(c1ccccc1)c1nc2ccccc2s1 (stereo not given) the growth inhibition was inactive: 2%.
With CCOP1(=S)c2c(C)nn(CCC#N)c2N=C(c2ccccc2F)N1C (stereo not given) the growth inhibition was inactive: 9%.
For O=[N+]([O-])c1ccc2c(c1)nnn2O, the growth inhibition was inactive: -4%.
In the case of CCOP1(=S)c2c(C)nn(CCC#N)c2N=C(c2ccc(F)cc2)N1C (stereo not given), the growth inhibition is reported as inactive: -4%.
For Cc1cccc(OCC(=O)OC2CN3CCC2CC3)c1 (stereo not given), the growth inhibition was inactive: -4%.
With O=P1(Nc2ccccn2)COc2ccccc2OC1 the growth inhibition was inactive: 6%.
In the case of Clc1n[nH]nc1-c1nn[nH][15n]1, the growth inhibition is reported as inactive: 3%.
For Cc1nn(-c2ccccc2)c2c1P(=O)(N1CCOCC1)N(C)C(c1ccccc1)=N2 (stereo not given), the growth inhibition was inactive: 0%.
For O=P1(Nc2ncccn2)COc2ccccc2OC1, the growth inhibition was inactive: 0%.
For Cc1ccc(OCC(=O)OC2CN3CCC2CC3)cc1 (stereo not given), the growth inhibition was inactive: 2%.
In the case of O=P1(Nc2ccc(Br)cn2)COc2ccccc2OC1, the growth inhibition is reported as inactive: -4%.
With O=C(OC1CN2CCC1CC2)c1cccc(Cl)c1 (stereo not given) the growth inhibition was inactive: 12%.
With O=P(Nc1nccs1)(c1ccccc1)c1ccccc1 the growth inhibition was inactive: 6%.
In the case of c1nnnn1CCn1cnnn1, the growth inhibition is reported as inactive: 8%.
In the case of O=P1(Nc2nc3ccc(Cl)cc3s2)COc2ccccc2O1 (stereo not given), the growth inhibition is reported as inactive: 7%.
For CCOC(=O)NC(Sc1ccccc1)C(Cl)(Cl)Cl (stereo not given), the growth inhibition was inactive: -2%.
In the case of COC(=O)c1cc2c(s1)N=C(c1ccccc1)N(C)P2(=O)N1CCOCC1 (stereo not given), the growth inhibition is reported as inactive: 6%.
With CCC(=O)N1C2C3N(C(=O)CC)C1C1N(C(=O)CC)C(C(N1C(=O)CC)N3C(=O)CC)N2C(=O)CC the growth inhibition was inactive: -6%.
In the case of CCOP(=O)(Nc1ccccc1)OCC, the growth inhibition is reported as inactive: -5%.
In the case of CC(C)CC(=O)NC(Sc1ccc(Cl)cc1)C(Cl)(Cl)Cl (stereo not given), the growth inhibition is reported as inactive: -2%.
For Cc1c2non([O-])c-2c(C)[n+](=O)[n+]1[O-], the growth inhibition was active: 95%.
In the case of Oc1ccccc1CNc1ccccn1, the growth inhibition is reported as inactive: 12%.
For O=[N+]([O-])c1cccc2n[nH]nc12, the growth inhibition was inactive: 9%.
In the case of CC(=O)N1C2C3N(C(C)=O)C1C1N(C(C)=O)C(C(N1C(C)=O)N3C(C)=O)N2C(C)=O, the growth inhibition is reported as inactive: 4%.
With CCc1nc2c(n1)c1c(non1O)c1c2no[n+]1[O-] the growth inhibition was inactive: -6%.
For CC1CCN(C(=O)Oc2c(Cl)cc(Cl)c3cccnc23)CC1, the growth inhibition was inactive: 6%.
